Measurements from patent US7700727B2, “Compositions and kits for detecting pathogen infection” (Biokit, S.A., priority 2003, dated 2010).

Columns and labels:
lysozyme [1] = target: T1, lysozyme (Homo sapiens, UniProt P61626); experiment: Lysozyme inhibition assay of Tp17 mutants; assay type: biochemical; settings: GST-Tp17 mutants; 2 units human lysozyme
T1 sequence (P61626 19-148): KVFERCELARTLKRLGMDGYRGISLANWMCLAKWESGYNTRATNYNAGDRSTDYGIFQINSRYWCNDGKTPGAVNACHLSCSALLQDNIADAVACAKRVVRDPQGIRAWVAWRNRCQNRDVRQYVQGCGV

lysozyme [2] = target: T1, lysozyme; experiment: Lysozyme binding of Tp17 mutants (FIG. 36); settings: GST-Tp17 mutants

Molecule	lysozyme inhibition relative to wild-type Tp17 (lysozyme [1])	ability to bind lysozyme (lysozyme [2])
H31A (protein) MSPILGYWKIKGLVQPTRLLLEYLEEKYEEHLYERDEGDKWRDKKFELGLEFPNLPYYIDGDVKLTQSMAIIRYIADKHNMLGGCPKERAEISMLEGAVLDIRYGVSRIAYSKDFETLKVDFLSKLPEMLKMFEDRLCHKTYLNGDHVTHPDFMLYDALDVVLYMDPMCLDAFPKLVCFKKRIEAIPQIDKYLKSSKYIAWPLQGWQATFGGGDHPPKSDLVPRGSCVSCTTVCPAAGKAKAEKVECALKGGIFRGTLPAADCPGIDTTVTFNADGTAQKVELALEKKSAPSPLTYRGTWMVREDGIVELSLVSSEQSKAPHEKELYELIDSNSVRYMGAPGAGKPSKEMAPFYVLKKTKK	decrease in lysozyme inhibition	retained their ability to bind lysozyme
His104A (protein) MSPILGYWKIKGLVQPTRLLLEYLEEKYEEHLYERDEGDKWRDKKFELGLEFPNLPYYIDGDVKLTQSMAIIRYIADKHNMLGGCPKERAEISMLEGAVLDIRYGVSRIAYSKDFETLKVDFLSKLPEMLKMFEDRLCHKTYLNGDHVTHPDFMLYDALDVVLYMDPMCLDAFPKLVCFKKRIEAIPQIDKYLKSSKYIAWPLQGWQATFGGGDHPPKSDLVPRGSCVSCTTVCPHAGKAKAEKVECALKGGIFRGTLPAADCPGIDTTVTFNADGTAQKVELALEKKSAPSPLTYRGTWMVREDGIVELSLVSSEQSKAPAEKELYELIDSNSVRYMGAPGAGKPSKEMAPFYVLKKTKK	decrease in lysozyme inhibition	retained their ability to bind lysozyme
